Laboratory results: PubChem BioAssay AID624099 (ICCB-Longwood, 2012)
Aim: 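Host factors E2 relies on to silence an HPV18 LCR reporter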 (primary screen). System: human C33A cervical carcinoma cells (HPV-negative) stably expressing BPV1 E2 and an HPV18 LCR luciferase reporter. Reagents: siRNA pool against human genes, 40 nM. Time to read-out: 72 h. Detection: 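Per-well luciferase luminescence, z-scored on each plate against the plate mean and SD with control wells left out, then averaged across three replicate plates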. Reading the numbers: mean z-score and z-score: higher = stronger reporter signal, weaker E2 silencing. Active means: 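Hit if mean z-score reaches 2 and two or more of three replicate z-scores also reach 2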.
The whole screen tested about 21,000 reagents; this is a random part of them. 497 of all reagents (2.4%) were called active. 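Higher z means weaker E2 silencing; only reporter increases were scored, and knock-downs that hurt cell survival may mask genuine repressor factors.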

mean z-score | z-score, replicate A | z-score, replicate B | z-score, replicate C | activity call | Target gene | PubChem SID
0.48 | 0.47 | 0.64 | 0.33 | inactive | MYO18A | SID134316233
0.18 | -0.07 | 0.37 | 0.24 | inactive | MYO18A | SID134329267
1.9 | 2.14 | 2.21 | 1.35 | inactive | CYRIB | SID134321871
1.25 | 1.26 | 1.3 | 1.2 | inactive | EPB41 | SID134310002
-1.88 | -1.98 | -2.05 | -1.6 | inactive | SPEM1 | SID134329583
-0.23 | -0.13 | -0.07 | -0.5 | inactive | USB1 | SID134318541
-1.58 | -1.75 | -1.49 | -1.49 | inactive | SIX2 | SID134320989
-0.29 | -0.1 | -0.41 | -0.35 | inactive | PERM1 | SID134329230
1.36 | 1.19 | 1.6 | 1.3 | inactive | WNT11 | SID134314210
2.13 | 2.08 | 2.33 | 1.98 | active | KRTAP5-9 | SID134323756
-1.11 | -1.13 | -0.91 | -1.27 | inactive | GTF2E1 | SID134311854
-0.94 | -0.78 | -1.1 | -0.93 | inactive | APBA1 | SID134321349
-0.06 | 0.3 | -0.26 | -0.23 | inactive | H2AJ | SID134311815
-0.37 | -0.38 | -0.48 | -0.26 | inactive | TEX19 | SID134329614
-0.54 | -0.67 | -0.61 | -0.36 | inactive | CTPS1 | SID134311934
1 | 1.75 | 0.34 | 0.91 | inactive | CDKN2C | SID56478606
1.22 | 1.05 | 0.83 | 1.78 | inactive | EGR4 | SID134311853
-0.43 | -0.79 | -0.17 | -0.34 | inactive | ULBP3 | SID134318514
-2.01 | -1.86 | -2.17 | -1.99 | inactive | ZNF620 | SID134325708
0.25 | 0.29 | 0.09 | 0.36 | inactive | DOCK2 | SID134323673
-0.75 | -0.77 | -0.59 | -0.89 | inactive | MTHFD2 | SID134314105
0.41 | 0.32 | 0.48 | 0.42 | inactive | LINC00494 | SID134329024
-0.13 | 0.02 | -0.14 | -0.26 | inactive | PRKG1 | SID56478831
-4.01 | -3.74 | -4.32 | -3.98 | inactive | LOC388134 (retired record) | SID134328554
0.81 | 1.15 | 0.36 | 0.9 | inactive | NTHL1 | SID134314101
0.19 | 0.18 | 0.33 | 0.07 | inactive | LOC389019 (retired record) | SID134327144
0.19 | 0.1 | 0.24 | 0.24 | inactive | RABAC1 | SID134323873
0.06 | 0.42 | -0.33 | 0.09 | inactive | LINC00548 | SID134328440
-0.56 | -0.32 | -0.28 | -1.09 | inactive | EMID1 | SID134319392
-0.55 | -1.06 | -0.13 | -0.45 | inactive | MAPK8IP3 | SID56478709
-1.09 | -0.98 | -1.31 | -0.98 | inactive | TTC21B | SID134325005
0.7 | 0.14 | 0.76 | 1.2 | inactive | TRIM44 | SID134321277
-0.03 | -0.67 | 0.11 | 0.47 | inactive | CLEC4A | SID134324960
0.16 | -0.03 | 0.4 | 0.1 | inactive | ATXN7L2 | SID134322238
0.9 | 0.89 | 0.66 | 1.14 | inactive | PRSS47P | SID134326491
-0.17 | 0 | -0.29 | -0.21 | inactive | RECK | SID134315809
-0.51 | -0.46 | -0.48 | -0.6 | inactive | MAN2C1 | SID134313207
-0.38 | -0.46 | -0.37 | -0.31 | inactive | ZMYND11 | SID134312062
0.29 | 0 | 0.43 | 0.42 | inactive | DNMT3L | SID134317854

5 of these entries, set out differently.
{"Target gene": "SPEM1", "PubChem SID": "SID134329583", "mean z-score": -1.88, "z-score, replicate A": -1.98, "z-score, replicate B": -2.05, "z-score, replicate C": -1.6, "activity call": "inactive"}
{"Target gene": "USB1", "PubChem SID": "SID134318541", "mean z-score": -0.23, "z-score, replicate A": -0.13, "z-score, replicate B": -0.07, "z-score, replicate C": -0.5, "activity call": "inactive"}
{"Target gene": "SIX2", "PubChem SID": "SID134320989", "mean z-score": -1.58, "z-score, replicate A": -1.75, "z-score, replicate B": -1.49, "z-score, replicate C": -1.49, "activity call": "inactive"}
{"Target gene": "PERM1", "PubChem SID": "SID134329230", "mean z-score": -0.29, "z-score, replicate A": -0.1, "z-score, replicate B": -0.41, "z-score, replicate C": -0.35, "activity call": "inactive"}
{"Target gene": "WNT11", "PubChem SID": "SID134314210", "mean z-score": 1.36, "z-score, replicate A": 1.19, "z-score, replicate B": 1.6, "z-score, replicate C": 1.3, "activity call": "inactive"}
